# Reference: US11766420B2 (priority 2015, dated 2023)
# Legend:
# APP/PS1 mice [1] = assay: Morris Water Maze in APP/PS1 mice gavaged with PAO; details: 4 month-age APP/PS1 mice, gavage 0.1, 0.3, 1.0 mg/kg, 6 weeks; most notably at 0.3 mg/kg
# Aβarc flies = assay: ELISA quantification of Aβ42 in Aβarc flies; details: Aβarc flies after treatment
# [2] = tested on: HEK293T cells stably transfected with human APP; assay: Aβ42 secretion detected in HEK293T-APP cells (ELISA of culture medium); format: cell-based
# APP = details: HEK293T-APP cells, different concentrations
# APP/PS1 mice [3] = assay: ELISA of Aβ42 in CSF and fractionated brain membrane of APP/PS1 mice; details: TBS with 1% Triton or 1% SDS extracts; most notably at 0.3 mg/kg
# [4] = tested on: Aβarc-expressing third instar larvae; details: dissected Aβarc-expressing third instar larvae, 8 h
smiles,measurement,setting,value
O=[As]c1ccccc1 (centres unmarked),Impairment of spatial learning and memory abilities (water maze),APP/PS1 mice [1],significantly reduced
same,Amount of Aβ42 (ELISA),Aβarc flies,significantly decreased
same,Aβ42 concentration in culture medium in the presence of DAPT,"[2]; DAPT (1 μM), γ secretase inhibitor",increases Aβ42 concentration in culture medium under the presence of DAPT
same,Low concentration at which the effect on Aβ42 secretion is still stable,[2]; FIG. 16,1.0 nM
same,Aβ42 concentration in culture medium,[2]; treatment in culture medium,increasing Aβ42 concentration in culture medium
same,APP level,APP,"without affecting the activities of α, β, and γ secretase which cleaves APP (FIG. 14 panel a) or causing an increase of APP level"
same,Aβ42 level in brain membrane,APP/PS1 mice [3],unexpectedly increased the Aβ42 level in brain membrane
same,Aβ42 secretion into medium,[4],facilitates Aβ42 secretion and exhibits a tendency of drug dose dependency
